## Percent effect of library compounds

Each number is a percent effect as filed.
The record does not define 0% and 100%; most values in the screen are far below 50% and negative numbers occur (in some assays of this library far below -100).
Many other results are left out here, so strong results are more common than in the screen.

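Growth of Mycobacterium tuberculosis over 3 days (7H9 medium with glucose and tyloxapol); the read-out is not stated. Concentration: 500 µM. Higher reads as more growth inhibition (inferred: compounds with an IC50 in retests scored well above the rest). Of about 18,000 compounds tested this way, about 1,400 (7.9%) reached 50% or more in at least one test.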

{"smiles": "O=C(Nc1ccc2c(c1)C(=O)NC2=O)c1ccc(Br)o1", "percent effect": 7.86}
{"smiles": "Cc1nccc(C(=O)Nc2ccccn2)n1", "percent effect": 6.614}
{"smiles": "N#CCOC(=O)CC(NC(N)=O)c1ccccc1", "stereo": "stereo unspecified", "percent effect": 6.262}
{"smiles": "CCc1noc(C)c1C(=O)NCCN(C)C", "percent effect": 7.39}
{"smiles": "CCNc1ncc(C(=O)N2CCCCC2)s1", "percent effect": 92.69}
{"smiles": "C1=C(CCNc2ncccn2)CCOC1", "percent effect": -1.316}
{"smiles": "COCc1ccccc1CS(N)(=O)=O", "percent effect": 1.35}
{"smiles": "CCSCCNC(=O)c1cc(CC)[nH]c(=O)c1", "percent effect": -4.296}
{"smiles": "Cc1cccc(NC(=O)C(C)N)c1", "stereo": "stereo unspecified", "percent effect": 18.49}
{"smiles": "CO[C@H]1CNCC1NC(=O)c1sc(C)nc1C", "stereo": "stereo partly specified", "percent effect": -19.08}
{"smiles": "O=C1NC(=O)[C@@H]2CN(Cc3ccccc3)C[C@H]12", "percent effect": 3.408}
{"smiles": "Cc1n[nH]cc1CNCc1ccccc1CO", "percent effect": 34.64}
{"smiles": "COc1ccccc1C1(N)CCC1", "percent effect": 4.995}
{"smiles": "CC(=O)NCc1cn2ccsc2n1", "percent effect": 16.32}
{"smiles": "NCCc1nc(-c2ccccn2)cs1", "percent effect": 74.8}
{"smiles": "CS(=O)(=O)Cc1ccc(C(=O)Nc2ccccc2)cc1", "percent effect": -2.403}
{"smiles": "CC1(C)CN(C(=O)c2cccn2C2CC2)C[C@]1(C)O", "percent effect": 10.06}
{"smiles": "O=C(NCCN1CCCC1)c1csc(-c2ccco2)n1", "percent effect": 66.08}
{"smiles": "Cc1ccc2oc(N3CCNCC3)nc2c1", "percent effect": 63.68}
{"smiles": "O=C(NCc1ccccn1)c1n[nH]cc1I", "percent effect": 25.64}
{"smiles": "Cc1ccc(C(N)c2ccccn2)cc1", "stereo": "stereo unspecified", "percent effect": 51.83}
{"smiles": "COc1cccc([C@H]2C[C@H](N)C2)c1", "percent effect": 49.49}
{"smiles": "O=c1ccc(F)cn1Cc1ccn(-c2ccccc2)n1", "percent effect": 36.48}
{"smiles": "O=C(NCCOc1ccc2c(c1)OCO2)C1CCCO1", "stereo": "stereo unspecified", "percent effect": 41.59}
{"smiles": "COCc1nn(CC(=O)N(C)C2CCCCC2)c(=O)o1", "percent effect": 43.55}
{"smiles": "COc1cc(CNC2CC2)ccc1O", "percent effect": 20.26}
{"smiles": "CC1Cc2ccccc2N1CCN", "stereo": "stereo unspecified", "percent effect": 77.97}
{"smiles": "CC(C)CC1NCCNC1=O", "stereo": "stereo unspecified", "percent effect": 2.471}
{"smiles": "COC(=O)Cn1ccc(=O)c2cc(Cl)ccc21", "percent effect": -12.75}
{"smiles": "CC(N)c1noc(-c2ccccc2)n1", "stereo": "stereo unspecified", "percent effect": 37.6}
{"smiles": "CN(Cc1ccc(S(=O)(=O)N(C)C)o1)CC1CC1", "percent effect": 10.03}
{"smiles": "COc1ccc(NC(=O)N2CCN3CCC2CC3)cn1", "percent effect": -161.4}
{"smiles": "N#Cc1ccc(NC(=O)Cn2ccnc2)cc1", "percent effect": 50.63}
{"smiles": "CN(Cc1cccc(C(N)=O)c1)C(=O)c1occc1Br", "percent effect": 53.89}
{"smiles": "CNc1ncc(C(=O)N2CCNCC(O)C2)cn1", "stereo": "stereo unspecified", "percent effect": -5.663}

Some entries from above, unchanged:

{"smiles": "COCc1ccccc1CS(N)(=O)=O", "percent effect": 1.35}
{"smiles": "COc1ccc(NC(=O)N2CCN3CCC2CC3)cn1", "percent effect": -161.4}
{"smiles": "COCc1nn(CC(=O)N(C)C2CCCCC2)c(=O)o1", "percent effect": 43.55}

The values are deposited in ChEMBL (CHEMBL3988442, “University of Dundee, Small-Polar-MMV Screening Library” (2021)).